Anti-infective test results gathered from many reports (values: NIAID ChemDB through PubChem).

Common to all: whole-cell or culture tests

ECn is the concentration giving n% inhibition of infection, replication or growth.

SMILES | cells | measure | read by | dose | strain or isolate | agent | result
CCOC(=O)c1cc(C#N)c2[nH]c3ccccc3n2c1=O | HEP-2 | EC50 | plaque count |  | LONG | Respiratory syncytial virus | 15.3 µg/mL
Cn1ncc2c1C(=O)c1c(O)c3c(c(O)c1C2=O)CCCC3 |  | inhibition |  | 50 µM |  | Cryptosporidium parvum | <10%
CN[C@H]1C[C@@H](n2cnc3c(N)ncnc32)[C@H](O)[C@@H]1O | HFF | EC50 |  |  |  | Pichinde virus | >100 µg/mL
CN(C)c1ncnc2c1ncn2Cc1ccc(NC(=O)C(N)Cc2ccccc2)cc1 | M-HELA | EC50 | plaque count |  |  | Coronavirus | >50 µM
CCc1ccc(CCCOc2cc(C)c(-c3noc(C(F)(F)F)n3)c(C)c2)nn1 | HeLa | EC50 | cytopathic effect |  |  | Enterovirus | 0.033–0.659 µg/mL
CC(=O)N1c2cccc(O)c2NC2=C(C(=O)CC(C)(C)C2)C1c1ccc(Oc2ccccc2)o1 |  | EC50 | luciferase / reporter gene / replicon |  | 1b | Hepatitis C virus | 10.21 µM
O=C(O)CP(=O)(O)O | HEL | EC50 | cytopathic effect |  | Oka CF1603-resistant | Varicella zoster virus | 42.4 µM
CCC(CC)O[C@@H]1C=C(C(=O)O)C[C@H](N)[C@H]1NC(C)=O | MDCK | EC50 | plaque count |  | Isolate C35C | Influenza B virus | 0.055 µg/mL
CC(C)(CCOc1ccc(-c2ccc(Cl)cc2)cc1)CCN1CCN(c2ccncc2)C1=O | RD | EC50 | cytopathic effect |  | Clinical isolate 71 (4643) | Enterovirus | 0.041 µM
CCCC(CCC)C(NC(C)=O)C1C(N=C(N)N)CC(C(=O)O)C1O | MDCK | EC50 |  |  | H1N1 A/Bayern/07/95 | Influenza A virus | 0.36 µM
COc1c(N2C[C@@H]3CCCN[C@@H]3C2)c(F)cc2c(=O)c(C(=O)O)cn(C3CC3)c12 |  | MIC90 |  |  | 191 isolates | Streptococcus pyogenes | 0.24 µg/mL
CC(=O)c1cc(NC(=O)c2ccccc2)c(=O)n2c1[nH]c1ccccc12 | HEP-2 | EC50 | plaque count |  | LONG | Respiratory syncytial virus | >40 µg/mL
CN(C)c1ncnc2c1ncn2Cc1cccc(N)c1 | M-HELA | EC50 | plaque count |  |  | Coronavirus | >50 µM
O=C(O)P(=O)(O)O | HEL | EC50 | cytopathic effect |  | Oka CF1603-resistant | Varicella zoster virus | 27.8 µM
CC(C)C(=O)N1c2cccc(O)c2NC2=C(C(=O)CC(C)(C)C2)C1c1cnc(Oc2ccccc2Br)s1 |  | EC50 | luciferase / reporter gene / replicon |  | 1b | Hepatitis C virus | 3.59 µM
CCc1ccc(CCCOc2c(C)cc(-c3nnn(C)n3)cc2C)o1 | HeLa | EC50 | cytopathic effect |  |  | Enterovirus | 0.033–0.659 µg/mL
O=C1c2cn[nH]c2C(=O)c2c(O)ccc(O)c21 |  | inhibition |  | 100 µM |  | Cryptosporidium parvum | 100%
CC1(C)CC(=O)C2=C(C1)Nc1c(O)cccc1N(C(=O)CC(=O)O)C2c1ccc(Cl)cc1Cl |  | EC50 | luciferase / reporter gene / replicon |  | 1b | Hepatitis C virus | 32.21 µM
CSc1nsc(-c2ccc(OS(=O)(=O)c3ccc(C)cc3)cc2)c1C#N | HEP-2 | EC50 | plaque count |  | TYPE B1 | Coxsackie virus | >25 µM
CC(=O)N[C@H]1[C@H]([C@H](O)[C@H](O)CO)OC(C(=O)O)=C[C@@H]1N=C(N)N | MDCK | EC50 |  |  | H1N1 A/NWS/33 | Influenza A virus | >100 µM
NC[C@@H]1O[C@H](O[C@H]2[C@@H](O)[C@H](O[C@@H]3[C@@H](O)[C@H](N)C[C@H](N)[C@H]3O[C@H]3O[C@H](CO)[C@@H](O)[C@H](O)[C@H]3N)O[C@@H]2CO)[C@H](N)[C@@H](O)[C@@H]1O |  | inhibition |  | 100 µM |  | Cryptosporidium parvum | 40%
Nc1nc2c(ncn2COC2COP(=O)(O)OC2)c(=O)[nH]1 | GPE | EC50 | plaque count |  | Lymphotropic | Guinea pig herpesvirus | 2 µg/mL
Nc1nc2c(ncn2CCC(CO)CO)c(=O)[nH]1 | HEL | EC50 | cytopathic effect |  | Clinical isolate VZV-20 | Varicella zoster virus | 3.22 µM
O=C(NCCO)NNC(=O)Nc1cc(C(F)(F)F)cc(C(F)(F)F)c1 |  | MIC |  |  | KL21 | Klebsiella pneumoniae | >300 µM
CN(C)c1ncnc2c1ncn2Cc1ccccc1NC(=O)CN | M-HELA | EC50 | plaque count |  |  | Coronavirus | >50 µM
CN(C)c1cc(NC(=O)CNC(C)(C)C)c(O)c2c1C[C@H]1C[C@H]3[C@H](N(C)C)C(=O)C(C(N)=O)=C(O)[C@@]3(O)C(=O)C1=C2O |  | MIC90 |  |  | 20 strains (vancomycin-resistant) | Enterococcus faecalis | 0.12 µg/mL
CC(CCOc1ccc(-c2ccc(Cl)cc2)cc1)CCN1CCN(c2ccncc2)C1=O | RD | EC50 | cytopathic effect |  | Clinical isolate 71 (2231) | Enterovirus | 0.038 µM
O=C(CC(=O)Nc1cc(C(F)(F)F)cc(C(F)(F)F)c1)Nc1ccc(C(F)(F)F)cc1 |  | MIC |  |  | ES142 | Escherichia coli | >300 µM
CC1(C)CC(=O)C2=C(C1)Nc1c(O)cccc1N(C(=O)c1ccc3c(c1)OCO3)C2c1ccc(OCc2ccccc2)cc1F |  | EC50 | luciferase / reporter gene / replicon |  | 1b | Hepatitis C virus | 1.98 µM
O=C(Nc1cc(C(F)(F)F)cc(C(F)(F)F)c1)NN(C(=O)Nc1cc(C(F)(F)F)cc(C(F)(F)F)c1)c1nc2ccccc2s1 |  | MIC |  |  | KL21 | Klebsiella pneumoniae | >300 µM
Cc1nc(-c2cc(C)c(OCCCc3ccco3)c(C)c2)no1 | HeLa | EC50 | cytopathic effect |  |  | Enterovirus | 0.033–0.659 µg/mL
CCC(CC)[C@H](NC(C)=O)[C@@H]1C[C@@H](C(=O)O)C[C@H]1N=C(N)N | MDCK | EC50 |  |  | H1N1 A/Bayern/07/95 | Influenza A virus | 0.64 µM
N#Cc1cc(NC(=O)c2ccccc2)c(=O)n2c1[nH]c1ccccc12 | HEP-2 | EC50 | syncytia |  |  | Respiratory syncytial virus | 0.9 µg/mL
N#Cc1cc([N+](=O)[O-])ccc1Oc1ccc(Cl)c(Cl)c1 | VERO | inhibition |  | 0.19 µg/mL | TYPE A21 | Coxsackie virus | 83%
Nc1ncnc2c1ncn2Cc1cccc(NC(=O)C(N)Cc2ccccc2)c1 | M-HELA | EC50 | plaque count |  |  | Coronavirus | >50 µM
CSc1nsc(-c2cccc(Cl)c2)c1C#N | L929 | EC50 | plaque count |  | Encephalomyocarditis virus | Encephalomyocarditis virus | >10 µM
CCCc1ccc(CCCOc2ccc(-c3ccccc3)c(Br)c2)nn1 | HeLa | EC50 | cytopathic effect |  |  | Enterovirus | 0.033–0.659 µg/mL
Nc1nc2c(ncn2COC(CO)CO)c(=O)[nH]1 | MRC-5 | EC50 |  |  | 209 | Cytomegalovirus | 9.9 µM
CO/N=C1\CN(c2nc3c(cc2F)c(=O)c(C(=O)O)cn3C2CC2)CC1CN |  | MIC50 |  |  | 37 isolates erythromycin-resistant | Streptococcus pneumoniae | 0.031 µg/mL
Cc1cc(CCCOc2c(C)cc(-c3noc(C(F)(F)F)n3)cc2C)on1 | OHIO HELA-I | EC50 | cytopathic effect / visual reading |  | Isolate 19 | Rhinovirus | 0.11 µg/mL
Nc1nc(N)c2ncn(CCOCP(=O)(O)O)c2n1 | HEL | EC50 | cytopathic effect |  | OKA (WILD TYPE) | Varicella zoster virus | 2.3 µM
COc1cc(C)cc2c1C(=O)c1cnn(C)c1C2=O |  | inhibition |  | 100 µM |  | Cryptosporidium parvum | 71%
O=C(O)P(=O)(O)O | HFF | inhibition | hybridisation | 50 µM | AD169 | Cytomegalovirus | 17.4%
O=C(NNc1ncc(C(F)(F)F)cn1)Nc1cc(C(F)(F)F)cc(C(F)(F)F)c1 |  | MIC |  |  | ES142 | Escherichia coli | >300 µM
Cn1ncc2c1C(=O)c1cccc(O)c1C2=O |  | EC50 |  |  |  | Cryptosporidium parvum | 10–25 µM
Nc1ccn([C@@H]2O[C@H](CO)[C@@H](O)[C@@H]2O)c(=O)n1 |  | MIC |  |  | TOWNE | Cytomegalovirus | 1.1 µg/mL
COc1cc(OC)c2c(=O)cc(-c3ccccc3)oc2c1CC=C(C)C | LLC-MK2 | inhibition | plaque count | 6 µM | Type 2/Mexican isolate | Dengue virus | 10%
N#Cc1cc(C#N)c2[nH]c3ccccc3n2c1=O | VERO | EC50 | plaque count |  | ECXH-3-11 | Mumps virus | 8.5 µg/mL
O=C(NNC(=O)Nc1cc(C(F)(F)F)cc(C(F)(F)F)c1)Nc1cc(C(F)(F)F)cc(C(F)(F)F)c1 |  | MIC |  |  | ES142 | Escherichia coli | 300 µM
Cc1ccc2c(c1)C(=O)c1c(cnn1C)C2=O |  | inhibition |  | 25 µM |  | Cryptosporidium parvum | 34%
CCC(O)CN(NC(=O)Nc1cc(C(F)(F)F)cc(C(F)(F)F)c1)C(=O)Nc1ccc(C(F)(F)F)cc1 |  | MIC |  |  | KL21 | Klebsiella pneumoniae | >300 µM
CC(C)Nc1nc2cc(Cl)c(Cl)cc2n1[C@H]1O[C@@H](CO)[C@H](O)[C@@H]1O | MRC-5 | EC50 | hybridisation |  | C8303 | Human cytomegalovirus | 0.09 µM
CCCc1ccc(CCCOc2cc(C)c(-c3noc(C4CC4)n3)c(C)c2)nn1 | HeLa | EC50 | cytopathic effect |  |  | Enterovirus | 0.033–0.659 µg/mL
Nc1nc2c(ncn2COC(CO)CO)c(=O)[nH]1 | MRC-5 | EC50 | hybridisation |  | 2916RAE (LEU397ARG) | Human cytomegalovirus | 0.31 µM
O=C(Nc1cccc(C2=NCCN2)c1)Nc1cccc(C(F)(F)F)c1 |  | MIC |  |  | KL21 | Klebsiella pneumoniae | >300 µM
CCc1ccc(CCCOc2ccc(-c3noc(C(F)(F)F)n3)c(C)c2)nn1 | HeLa | EC50 | cytopathic effect |  |  | Enterovirus | 0.033–0.659 µg/mL
N#Cc1c(-c2ccccc2)s[nH]c1=S | HEP-2 | EC50 | plaque count |  | Edmonston | Measles virus | >60 µM
Nc1nc2c(ncn2CC(CO)CCO)c(=O)[nH]1 | MA-104 | EC50 | plaque count |  |  | Simian varicella-zoster virus | 83 µM
COc1c2c(c(O)c3ccccc13)C(=O)c1cnn(C)c1C2=O |  | inhibition |  | 50 µM |  | Cryptosporidium parvum | 90%
O=C1N(CCCCCOc2ccc(-c3ccc(Cl)cc3)cc2)CCN1c1ccncc1 | RD | EC50 | cytopathic effect |  | Clinical isolate 71 (4643) genotype C | Enterovirus | 0.038 µM
C=CCc1ccc(OC)c(OC)c1 |  | MIC90 | turbidity |  | 2918 | Candida parapsilosis | 350 µg/mL
CSc1nsc(-c2ccc(Cl)cc2)c1C#N | L929 | EC50 | plaque count |  | Encephalomyocarditis virus | Encephalomyocarditis virus | >5 µM
C/C=C/C/C=C/CCC(=O)[C@H]1O[C@H]1C(N)=O |  | MIC |  |  | SJ83 (GSHA) | Escherichia coli | 20 µg/mL
Cc1cc(OCCCc2ccc(Br)nn2)cc(C)c1-c1noc(C(F)F)n1 | HeLa | EC50 | cytopathic effect |  |  | Enterovirus | 0.033–0.659 µg/mL
Nc1nc2c(ccn2[C@@H]2C[C@H](CO)[C@H](O)[C@@H]2O)c(=O)[nH]1 |  | MIC |  |  |  | Adenovirus | >100 µg/mL
Cn1ncc2c1C(=O)c1cccc(Br)c1C2=O |  | inhibition |  | 50 µM |  | Cryptosporidium parvum | 95%

Again, the opening 7 rows:

SMILES	cells	measure	read by	dose	strain or isolate	agent	result
CCOC(=O)c1cc(C#N)c2[nH]c3ccccc3n2c1=O	HEP-2	EC50	plaque count		LONG	Respiratory syncytial virus	15.3 µg/mL
Cn1ncc2c1C(=O)c1c(O)c3c(c(O)c1C2=O)CCCC3		inhibition		50 µM		Cryptosporidium parvum	<10%
CN[C@H]1C[C@@H](n2cnc3c(N)ncnc32)[C@H](O)[C@@H]1O	HFF	EC50				Pichinde virus	>100 µg/mL
CN(C)c1ncnc2c1ncn2Cc1ccc(NC(=O)C(N)Cc2ccccc2)cc1	M-HELA	EC50	plaque count			Coronavirus	>50 µM
CCc1ccc(CCCOc2cc(C)c(-c3noc(C(F)(F)F)n3)c(C)c2)nn1	HeLa	EC50	cytopathic effect			Enterovirus	0.033–0.659 µg/mL
CC(=O)N1c2cccc(O)c2NC2=C(C(=O)CC(C)(C)C2)C1c1ccc(Oc2ccccc2)o1		EC50	luciferase / reporter gene / replicon		1b	Hepatitis C virus	10.21 µM
O=C(O)CP(=O)(O)O	HEL	EC50	cytopathic effect		Oka CF1603-resistant	Varicella zoster virus	42.4 µM

Lines come from different laboratories, so protocols vary. MIC50, MIC90 and the like: level of inhibition, or share of isolates inhibited. An empty or dashed field is not shown. Percent inhibition refers to the dose given; in toxicity tests it is the harm to the cells. Two numbers with a dash give a range or band.